Experimental data published in PubChem BioAssay.
The entries are a selection whose mix differs from that of the whole data set. Active and inactive are the calls of the source. Unless noted, how the calls were made is not given here.

Chains of the proteins cited; added tags and fusions are not shown.
UniProt P0DPI0, whole entry, looked up: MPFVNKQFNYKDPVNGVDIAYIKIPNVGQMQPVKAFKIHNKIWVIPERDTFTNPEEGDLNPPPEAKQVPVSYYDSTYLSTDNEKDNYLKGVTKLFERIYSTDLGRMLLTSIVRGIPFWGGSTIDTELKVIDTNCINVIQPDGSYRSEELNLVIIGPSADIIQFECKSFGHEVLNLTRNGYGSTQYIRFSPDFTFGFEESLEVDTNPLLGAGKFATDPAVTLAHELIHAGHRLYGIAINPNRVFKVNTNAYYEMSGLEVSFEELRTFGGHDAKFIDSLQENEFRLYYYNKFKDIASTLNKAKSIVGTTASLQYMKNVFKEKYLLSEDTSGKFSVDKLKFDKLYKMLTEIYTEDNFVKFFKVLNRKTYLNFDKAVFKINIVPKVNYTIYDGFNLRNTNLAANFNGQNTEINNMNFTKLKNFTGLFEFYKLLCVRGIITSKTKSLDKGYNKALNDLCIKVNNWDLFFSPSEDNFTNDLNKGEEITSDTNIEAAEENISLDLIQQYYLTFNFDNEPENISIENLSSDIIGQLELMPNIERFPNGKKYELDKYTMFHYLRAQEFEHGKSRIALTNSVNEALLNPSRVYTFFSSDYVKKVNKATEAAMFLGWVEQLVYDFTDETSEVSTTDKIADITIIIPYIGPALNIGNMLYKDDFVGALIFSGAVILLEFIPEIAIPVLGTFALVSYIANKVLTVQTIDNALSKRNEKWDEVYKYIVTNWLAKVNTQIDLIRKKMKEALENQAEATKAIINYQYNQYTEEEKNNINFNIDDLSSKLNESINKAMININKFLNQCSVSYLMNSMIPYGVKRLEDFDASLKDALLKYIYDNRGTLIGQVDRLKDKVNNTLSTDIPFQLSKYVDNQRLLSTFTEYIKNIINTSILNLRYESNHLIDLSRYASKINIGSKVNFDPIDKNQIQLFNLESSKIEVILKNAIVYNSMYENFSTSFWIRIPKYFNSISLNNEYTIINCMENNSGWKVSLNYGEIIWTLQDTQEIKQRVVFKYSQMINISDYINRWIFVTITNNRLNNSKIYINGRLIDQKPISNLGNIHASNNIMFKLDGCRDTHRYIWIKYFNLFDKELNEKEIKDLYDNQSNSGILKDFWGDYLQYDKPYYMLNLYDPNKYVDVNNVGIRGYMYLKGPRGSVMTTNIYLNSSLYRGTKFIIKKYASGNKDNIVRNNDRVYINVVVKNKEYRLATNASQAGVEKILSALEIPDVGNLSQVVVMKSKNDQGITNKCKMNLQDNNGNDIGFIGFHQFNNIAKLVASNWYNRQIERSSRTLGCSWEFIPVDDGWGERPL
UniProt P15917, whole entry, looked up: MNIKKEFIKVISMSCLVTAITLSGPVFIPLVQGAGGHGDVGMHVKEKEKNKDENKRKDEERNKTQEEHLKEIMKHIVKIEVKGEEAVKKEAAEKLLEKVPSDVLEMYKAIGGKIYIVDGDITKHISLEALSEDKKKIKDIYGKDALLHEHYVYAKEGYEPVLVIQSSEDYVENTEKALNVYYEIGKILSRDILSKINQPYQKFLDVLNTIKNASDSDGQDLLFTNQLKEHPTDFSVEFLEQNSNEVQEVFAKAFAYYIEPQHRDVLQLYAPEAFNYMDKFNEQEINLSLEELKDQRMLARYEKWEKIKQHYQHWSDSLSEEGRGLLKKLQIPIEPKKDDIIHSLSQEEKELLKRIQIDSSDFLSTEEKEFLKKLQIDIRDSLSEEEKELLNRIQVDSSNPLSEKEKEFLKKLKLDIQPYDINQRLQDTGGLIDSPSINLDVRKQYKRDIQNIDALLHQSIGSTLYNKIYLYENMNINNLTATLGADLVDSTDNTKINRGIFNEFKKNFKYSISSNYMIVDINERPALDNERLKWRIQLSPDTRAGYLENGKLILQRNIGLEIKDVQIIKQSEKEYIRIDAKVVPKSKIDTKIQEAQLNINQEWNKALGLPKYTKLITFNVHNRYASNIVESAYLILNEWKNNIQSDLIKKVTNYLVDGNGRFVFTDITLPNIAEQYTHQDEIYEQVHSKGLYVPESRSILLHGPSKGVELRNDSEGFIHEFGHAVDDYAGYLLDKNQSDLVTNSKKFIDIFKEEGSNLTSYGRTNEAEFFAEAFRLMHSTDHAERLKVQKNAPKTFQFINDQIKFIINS

Legend:
[1] = tested on: Botulinum neurotoxin type F light chain protease (Clostridium botulinum); test: Botulinum neurotoxin type F light chain protease inhibition, multiplex microsphere flow cytometry, validation set (AID 588459); details: multiplex microsphere protease substrate cleavage assay, at 10 µM, active compounds read high
[2] = target: Botulinum neurotoxin type A (Clostridium botulinum) (UniProt P0DPI0); test: BoNT/A light chain protease inhibitors, biochemical, multiplex microsphere flow cytometry, validation set (AID 588460); details: at 10 µM, active compounds read high
[3] = target: Lethal factor (Bacillus anthracis) (UniProt P15917); test: Lethal factor protease inhibitors, Bacillus anthracis, multiplex microsphere cleavage assay, validation set (AID 588461); details: flow cytometry, at 10 µM, active compounds read high
[4] = inhibitors of fungal efflux pumps CDR1, CDR2, MDR1, pilot screen, validation compound set, multiplex, phenotypic (AID 588506;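 active means efflux inhibition above 0.42, the validation set average plus 4 SD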;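 further: Nile Red retained in cells so higher fluorescence means more efflux inhibition; 0 = negative control wells and 1 = enniatin B 25 µM full block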); details: S. cerevisiae pump-expressing triplex, Nile Red efflux flow cytometry; at 10 µM; active compounds read high; the pumps come from Candida albicans

CN(C(=O)Cc1ccc(Cl)c(Cl)c1)[C@@H]1CCCC[C@H]1N1CCCC1
inactive: inhibition [1] 4.4% | inhibition [2] 0.6% | inhibition [3] 0.8% | efflux inhibition (fraction of control) [4] 0
